Compound potency records, mixed from different reports. Data source: NIAID ChemDB in PubChem.

All rows: whole-cell or culture tests; organism: HIV-1; read by: MTT; read-out: EC50

ECn: concentration that inhibits the pathogen or its effect by n%. An empty or dashed field is not shown. Conditions beyond the fields shown may differ between rows.

structure,mutations,cell line,strain or isolate,value
CC(Sc1nc2ncccc2n1-c1ccc(C2CC2)c2ccccc12)C(=O)Nc1ccc(S(N)(=O)=O)cc1Br,-,MT-4,RES056,>3.07 µM
Nc1ccn([C@H]2CC[C@@H](CO)O2)c(=O)n1,-,MT-4,IIIB,0.126 µg/mL
CCOC(=O)C(=O)CC(=O)c1ccc(Oc2ccnc(Nc3ccc(C#N)cc3)n2)cc1,Y181C,MT-4,IIIB,>22 µM
Cc1cc(C)c(Oc2ccc(N)c(NC3CCN(Cc4ccc(C(N)=O)cc4)CC3)n2)c(C)c1,Resistant strain (K103N + Y181C),MT-4,IIIB,3.9 µM
Cc1cc(C)c(Nc2nc(NC3CCN(Cc4ccccn4)CC3)nc3nc[nH]c23)c(C)c1,-,MT-4,IIIB,26.87 µM
C#Cc1ccc(Nc2nccc(Oc3c(C)cc(-c4cn(CC(=O)OC)nn4)cc3C)n2)cc1,Y181C,MT-4,IIIB,>10.35 µM
CCCN(C)C(=O)Oc1nsnc1-c1c(Cl)ccc(N)c1Cl,RT-V189I T240I,MAGI,IIIB,>10 µM
N#Cc1ccc(Nc2nccc(Oc3cc4c(cc3Br)c(=O)c(C(=O)O)cn4C3CCCCC3)n2)cc1,-,MT-4,IIIB,0.77 µM
CCOC(=O)C(=O)CC(=O)c1cccc(Oc2ccnc(Nc3ccc(C#N)cc3)n2)c1,L100I,MT-4,IIIB,>13 µM
NC(=O)c1ccc(NC(=O)CSc2nc3ncccc3n2-c2ccc(C3CC3)c3ccccc23)c(Cl)c1,-,MT-4,IIIB,0.12 µM
CC(C)Nc1cccnc1N1CCN(C(=O)c2cc3cc(NS(C)(=O)=O)ccc3[nH]2)CC1,-,MT-4,IIIB,0.743 µM
Cc1cc(C)c(Oc2ncc([N+](=O)[O-])c(Nc3ccc(C#N)cc3)n2)c(C)c1,-,MT-4,IIIB,0.0426 µM
Cc1cc(C#Cc2cccc(N)c2)cc(C)c1Oc1ccnc(Nc2ccc(C#N)cc2)n1,Y181C,MT-4,IIIB,0.259 µM
Cc1cc(C#N)cc(C)c1Oc1ncc(NC(=O)C(F)(F)F)c(Nc2ccc(C#N)cc2)n1,-,MT-4,IIIB,0.0375 µM
Cc1cc(C#Cc2ccccc2N)cc(C)c1Oc1ccnc(Nc2ccc(C#N)cc2)n1,-,MT-4,IIIB,0.046 µM
O=S1(=O)NC(Cc2ccc(Cl)cc2Cl)=CC(=NC2CCN(Cc3ccccc3)CC2)N1,-,MT-4,IIIB,26.97 µM
C=C1[C@H](CO)[C@@H](O)C[C@@H]1n1cnc2c(=O)[nH]c(N)nc21,-,MT-4,IIIB,0.0095 µM
Cc1cc(C#Cc2cccc(N)c2)cc(C)c1Oc1ccnc(NC2CCN(Cc3ccc(S(N)(=O)=O)cc3)CC2)n1,E138K,MT-4,IIIB,0.025 µM
Cc1ccnc2c1NC(=O)c1cccnc1N2C1CC1,K103N + Y181C,MT-4,IIIB,>15 µM
C#Cc1ccc(Nc2nccc(Oc3c(C)cc(-c4cn(Cc5ccc([N+](=O)[O-])cc5)nn4)cc3C)n2)cc1,L100I,MT-4,IIIB,1.52 µM
Cc1ccnc2c1NC(=O)c1cccnc1N2C1CC1,-,MT-4,Y188L (subtype B),>2 µg/mL
CCCn1cc(C(=O)O)c(=O)c2cc(Br)c(Oc3ccnc(Nc4ccc(C#N)cc4)n3)cc21,-,MT-4,IIIB,0.03 µM
Cc1cc(C)c(Nc2ccc([N+](=O)[O-])c(NC3CCN(Cc4ccc(C(N)=O)cc4)CC3)n2)c(C)c1,-,MT-4,IIIB,0.0096 µg/mL
Cc1cc(C#Cc2ccccc2)cc(C)c1Oc1ccnc(NC2CCN(Cc3ccc(S(N)(=O)=O)cc3)CC2)n1,-,MT-4,IIIB,0.005 µM
O=S1(=O)NC(Cc2ccc(Cl)cc2Cl)=CC(=NC2CCN(Cc3c(Cl)cccc3Cl)CC2)N1,-,MT-4,IIIB,>48.2 µM
CC(=O)Nc1cnc(Oc2c(C)cc(C=O)cc2C)nc1Nc1ccc(C#N)cc1,-,MT-4,IIIB,29 µM
CCC(NC(=O)c1ccc(NC(=O)CSc2nc3ncccc3n2-c2ccc(C3CC3)c3ccccc23)c(Cl)c1)C(=O)O,-,MT-4,RES056,>0.55 µM
O=S1(=O)NC(Cc2cccc3ccccc23)=CC(=NC2CCN(Cc3ccccc3)CC2)N1,RT-K103N Y181C,MT-4,RES056,31.7 µM
CC(Sc1nc2ncccc2n1-c1ccc(C2CC2)c2ccccc12)C(=O)Nc1ccc(C(N)=O)cc1Cl,-,MT-4,RES056,>2.01 µM
CC(=O)Nc1cccc(C#Cc2cc(C)c(Oc3ccnc(Nc4ccc(C#N)cc4)n3)c(C)c2)c1,RES056,MT-4,IIIB,>0.844 µM
C#Cc1ccc(Nc2nccc(Oc3c(C)cc(-c4cn(-c5ccc(C(=O)O)cc5)nn4)cc3C)n2)cc1,Y188L,MT-4,IIIB,6.22 µM
CC(C)Nc1cccnc1N1CCN(C(=O)c2cc3cc(NS(C)(=O)=O)ccc3[nH]2)CC1,RT-K103N Y181C,MT-4,RES056,>43.81 µM
Cc1cn([C@H]2C[C@H](N=[N+]=[N-])[C@@H](CO)O2)c(=O)[nH]c1=O,-,MT-4,RES056,>0.006 µM
c1cc(CN2CCCNCCNCCCNCC2)ccc1CN1CCCNCCNCCCNCC1,-,MT-4,92BR014 (subtype B),0.004 µg/mL
N#Cc1ccc(Nc2nc(Oc3c(Cl)cccc3Cl)ncc2N)cc1,-,MT-4,RES056,>33.04 µM
Cc1cc(C)c(Nc2nc(NC3CCN(Cc4ccc(C(N)=O)cc4)CC3)nc3nc[nH]c23)c(C)c1,-,MT-4,RES056,>23.85 µM
COC(=O)c1cn(C)c2cc(Oc3ccnc(Nc4ccc(C#N)cc4)n3)c(Br)cc2c1=O,K103N Y181C NNRTI-resistant,MT-4,IIIB,>159 µM
Cc1cc(C#Cc2ccc(N)cc2)cc(C)c1Oc1ccnc(Nc2ccc(C#N)cc2)n1,-,MT-4,IIIB,0.014 µM
O=C(CSc1nc2ncccc2n1-c1ccc(C2CC2)c2ccccc12)Nc1cccnc1Cl,-,MT-4,RES056,>0.8 µM
CC(=O)Nc1cnc(Oc2c(Cl)cccc2Cl)nc1Nc1ccc(C#N)cc1,-,MT-4,RES056,>193.7 µM
CC(C)(C)n1cc(C(=O)O)c(=O)c2cc(I)c(Oc3ccnc(Nc4ccc(C#N)cc4)n3)cc21,-,MT-4,IIIB,0.57 µM
Cc1cc(C#Cc2ccc(C(=O)O)cc2)cc(C)c1Oc1ccnc(Nc2ccc(C#N)cc2)n1,-,MT-4,IIIB,0.063 µM
Cc1ccnc2c1NC(=O)c1cccnc1N2C1CC1,-,MT-4,IIIB,0.26 µM
O=S1(=O)NC(Cc2cccc3ccccc23)=CC(=NC2CCN(Cc3ccc(F)cc3)CC2)N1,-,MT-4,IIIB,29.78 µM
Cc1cc(C=O)cc(C)c1Oc1ncc([N+](=O)[O-])c(Nc2ccc(C#N)cc2)n1,-,MT-4,RES056,>37.18 µM
Cc1cc(C)c(Oc2ccc(N)c(NC3CCN(Cc4ccc(S(N)(=O)=O)cc4)CC3)n2)c(C)c1,Resistant strain (K103N + Y181C),MT-4,IIIB,1.5 µM
Cc1cc(C#N)cc(C)c1Oc1ncc([N+](=O)[O-])c(Nc2ccc(C#N)cc2)n1,-,MT-4,IIIB,0.0621 µM
N#Cc1cccc(CN2CCC(N=C3C=C(Cc4cccc5ccccc45)NS(=O)(=O)N3)CC2)c1,-,MT-4,IIIB,>113 µM
CNc1nc(Nc2c(C)cc(C)cc2C)nc(NC2CCN(Cc3ccc(C(N)=O)cc3)CC2)n1,-,MT-4,IIIB,0.00461 µg/mL
Cc1cc(C#Cc2ccc(C(F)(F)F)cc2)cc(C)c1Oc1ccnc(Nc2ccc(C#N)cc2)n1,F227L + V106A,MT-4,IIIB,>7.353 µM
Cc1cn([C@H]2C[C@H](N=[N+]=[N-])[C@@H](CO)O2)c(=O)[nH]c1=O,E138K,MT-4,IIIB,0.016 µM
CCOC(=O)c1ccc(NC(=O)CSc2nc3ncccc3n2-c2ccc(C3CC3)c3ccccc23)c(Br)c1,-,MT-4,RES056,>3.19 µM
Cc1ccnc2c1NC(=O)c1cccnc1N2C1CC1,-,MT-4,IIIB,0.29 µM
O=S1(=O)NC(Cc2ccc(Cl)cc2Cl)=CC(=NC2CCN(Cc3ccc(F)cc3)CC2)N1,RT-K103N Y181C,MT-4,RES056,>103 µM
NS(=O)(=O)c1ccc(NC(=O)CSc2nc3ncccc3n2-c2ccc(C3CC3)c3ccccc23)c(Br)c1,-,MT-4,IIIB,0.059 µM

The first 8 rows once more:

| structure | mutations | cell line | strain or isolate | value |
|---|---|---|---|---|
| CC(Sc1nc2ncccc2n1-c1ccc(C2CC2)c2ccccc12)C(=O)Nc1ccc(S(N)(=O)=O)cc1Br | - | MT-4 | RES056 | >3.07 µM |
| Nc1ccn([C@H]2CC[C@@H](CO)O2)c(=O)n1 | - | MT-4 | IIIB | 0.126 µg/mL |
| CCOC(=O)C(=O)CC(=O)c1ccc(Oc2ccnc(Nc3ccc(C#N)cc3)n2)cc1 | Y181C | MT-4 | IIIB | >22 µM |
| Cc1cc(C)c(Oc2ccc(N)c(NC3CCN(Cc4ccc(C(N)=O)cc4)CC3)n2)c(C)c1 | Resistant strain (K103N + Y181C) | MT-4 | IIIB | 3.9 µM |
| Cc1cc(C)c(Nc2nc(NC3CCN(Cc4ccccn4)CC3)nc3nc[nH]c23)c(C)c1 | - | MT-4 | IIIB | 26.87 µM |
| C#Cc1ccc(Nc2nccc(Oc3c(C)cc(-c4cn(CC(=O)OC)nn4)cc3C)n2)cc1 | Y181C | MT-4 | IIIB | >10.35 µM |
| CCCN(C)C(=O)Oc1nsnc1-c1c(Cl)ccc(N)c1Cl | RT-V189I T240I | MAGI | IIIB | >10 µM |
| N#Cc1ccc(Nc2nccc(Oc3cc4c(cc3Br)c(=O)c(C(=O)O)cn4C3CCCCC3)n2)cc1 | - | MT-4 | IIIB | 0.77 µM |